Experimental data reported in patent US10781184B2, “Substituted benzazinones as antibacterial compounds” (GlaxoSmithKline Intellectual Property Development Limited, priority 2015, dated 2020).
The structures given here were assigned with low confidence; some may be wrong.

What was measured:
Test in all cases: Minimum Inhibitory Concentration Assay (broth microdilution, CLSI)
[1] = tested on: E. coli 7623; conditions: strain 7623, broth microdilution
Method: (§1) Methods for dilution Antimicrobial Susceptibility TestS for Bacteria that Grow Aerobically; Approved Standard-Ninth Edition; M7-A9, Vol. 32 No. 2, Clinical and Laboratory Standards Institute, Wayne, Pa.; January 2012.
(§2) Performance Standards for Antimicrobial Susceptibility Testing; Twenty-Second Informational Supplement; M100-S22 Vol. 32 No. 3; Clinical and Laboratory Standards Institute, Wayne, Pa., January 2012.
(§3) Broth microdilution was performed in accordance with the CLSI recommended procedures for aerobic bacteria [CLSI, 2012].
(§4) Comparator compound stock solutions were prepared as recommended by CLSI [CLSI, 2012]. The stock solutions of novel GSK compounds were prepared at 512 mcg/mL by dissolving the compounds in dimethyl sulfoxide (DMSO) and diluting 1:10 with sterile water. The 512 mcg/mL stock was further serially diluted in the recommended broth media for the organisms being tested. Final DMSO concentration in test wells was less than 1%.
(§5) Microtitre plates were prepared using the Microlab STAR™ (Hamilton Co., Reno, Nev.) to add media (50 μL) and the Microlab AT Plus system (Hamilton Co., Reno, Nev.) to serially dilute the compounds (final concentration range 0.125 to 128 mcg/mL) and to add inoculum. A positive growth control well containing medium and the test isolate was included on each microtitre plate. Ten microliters of the test medium from the positive growth control well was plated to determine the purity of each test isolate. A microtitre mirror reader (Cooke Instruments, Ltd., England) was used to assist in determining the microdilution MIC endpoints. The MIC was determined as the lowest concentration of compound that inhibited visible growth of the organism.

[2] = tested on: K. pneumoniae 1161486; conditions: strain 1161486, broth microdilution
Method: as §1, §2, §3, §4, §5

[3] = tested on: P. aeruginosa PA01; conditions: strain PA01, broth microdilution
Method: as §1, §2, §3, §4, §5

SMILES: CN(C)Cc1ccc(-c2ccc3c(=O)n(CC[C@](C)(C(=O)NO)S(C)(=O)=O)cc(F)c3c2)c(F)c1
- E. coli 7623 MIC [1]: 0.25 µg/mL
- K. pneumoniae 1161486 MIC [2]: 0.25 µg/mL
- P. aeruginosa PA01 MIC [3]: 2 µg/mL
